Measurements reported in PubChem BioAssay AID624099 (ICCB-Longwood, 2012)
Assay: 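Knock-downs relieving repression by E2 of an HPV18 LCR luciferase reporter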 (primary screen). Cells: human C33A cervical carcinoma cells (HPV-negative) stably expressing BPV1 E2 and an HPV18 LCR luciferase reporter. Reagents: siRNA pool against human genes, 40 nM. Duration: 72 h. Detection: 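Per-well luciferase luminescence, z-scored on each plate against the plate mean and SD with control wells left out, then averaged across three replicate plates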. Scale: mean z-score and z-score: higher = stronger reporter signal, weaker E2 silencing. Hit rule: 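Mean z ≥ 2 together with z ≥ 2 in two or more of the three replicates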.
Here is an unselected part of about 21,000 reagents. Of all reagents, 497 (2.4%) got an active call. 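Higher z means weaker E2 silencing; only reporter increases were scored, and knock-downs that hurt cell survival may mask genuine repressor factors.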

BRINP3 [SID134329489]
- mean z-score: 0.02
- z-score, replicate A: 0.16
- z-score, replicate B: 0.03
- z-score, replicate C: -0.13
- activity call: inactive

KIAA1958 [SID134328135]
- mean z-score: 0.04
- z-score, replicate A: -0.18
- z-score, replicate B: 0.3
- z-score, replicate C: 0
- activity call: inactive

RPS17P6 [SID134327058]
- mean z-score: 0.16
- z-score, replicate A: 1.1
- z-score, replicate B: -0.42
- z-score, replicate C: -0.21
- activity call: inactive

RNF151 [SID134328727]
- mean z-score: -0.65
- z-score, replicate A: -0.62
- z-score, replicate B: -0.64
- z-score, replicate C: -0.68
- activity call: inactive

UBE4B [SID134312320]
- mean z-score: -0.25
- z-score, replicate A: -0.27
- z-score, replicate B: -0.38
- z-score, replicate C: -0.09
- activity call: inactive

RPL3 [SID134317218]
- mean z-score: -2.19
- z-score, replicate A: -2.19
- z-score, replicate B: -2.18
- z-score, replicate C: -2.19
- activity call: inactive

INSIG2 [SID134324657]
- mean z-score: -0.83
- z-score, replicate A: -1
- z-score, replicate B: -0.77
- z-score, replicate C: -0.71
- activity call: inactive

SMARCB1 [SID134315036]
- mean z-score: -0.95
- z-score, replicate A: -0.94
- z-score, replicate B: -0.89
- z-score, replicate C: -1.01
- activity call: inactive

RPL35A [SID134317764]
- mean z-score: -2.23
- z-score, replicate A: -2.17
- z-score, replicate B: -2.31
- z-score, replicate C: -2.2
- activity call: inactive

NCOR2 [SID134323881]
- mean z-score: -0.14
- z-score, replicate A: -0.3
- z-score, replicate B: 0
- z-score, replicate C: -0.11
- activity call: inactive

HNRNPAB [SID134317707]
- mean z-score: 0.11
- z-score, replicate A: 0.27
- z-score, replicate B: -0.05
- z-score, replicate C: 0.09
- activity call: inactive

EIF5AL1 [SID134326551]
- mean z-score: -0.84
- z-score, replicate A: -0.84
- z-score, replicate B: -0.87
- z-score, replicate C: -0.82
- activity call: inactive

LOC401328 (retired record) [SID134327752]
- mean z-score: 0.09
- z-score, replicate A: 0.12
- z-score, replicate B: 0.15
- z-score, replicate C: -0.01
- activity call: inactive

Continued (3 carried over from the part before).
HNRNPAB [SID134317707]
- mean z-score: 0.11
- z-score, replicate A: 0.27
- z-score, replicate B: -0.05
- z-score, replicate C: 0.09
- activity call: inactive

EIF5AL1 [SID134326551]
- mean z-score: -0.84
- z-score, replicate A: -0.84
- z-score, replicate B: -0.87
- z-score, replicate C: -0.82
- activity call: inactive

LOC401328 (retired record) [SID134327752]
- mean z-score: 0.09
- z-score, replicate A: 0.12
- z-score, replicate B: 0.15
- z-score, replicate C: -0.01
- activity call: inactive

TERF2 [SID134309947]
- mean z-score: 0.57
- z-score, replicate A: 0.48
- z-score, replicate B: 0.57
- z-score, replicate C: 0.66
- activity call: inactive

LFNG [SID134326302]
- mean z-score: -0.09
- z-score, replicate A: -0.17
- z-score, replicate B: -0.1
- z-score, replicate C: -0.01
- activity call: inactive

CCDC60 [SID134322275]
- mean z-score: -0.15
- z-score, replicate A: 0.18
- z-score, replicate B: -0.26
- z-score, replicate C: -0.39
- activity call: inactive

FGF13 [SID134316175]
- mean z-score: -0.99
- z-score, replicate A: -1.07
- z-score, replicate B: -0.85
- z-score, replicate C: -1.05
- activity call: inactive

FGF13 [SID134322615]
- mean z-score: 0.23
- z-score, replicate A: 0.6
- z-score, replicate B: 0.11
- z-score, replicate C: -0.02
- activity call: inactive

L3MBTL1 [SID134317765]
- mean z-score: -1.55
- z-score, replicate A: -1.45
- z-score, replicate B: -1.17
- z-score, replicate C: -2.02
- activity call: inactive

CES2 [SID134313779]
- mean z-score: 0.25
- z-score, replicate A: -0.02
- z-score, replicate B: 0.22
- z-score, replicate C: 0.55
- activity call: inactive

KLHL14 [SID134325686]
- mean z-score: 2.37
- z-score, replicate A: 2.8
- z-score, replicate B: 2.06
- z-score, replicate C: 2.25
- activity call: active
